PubChem BioAssay AID1259414 | Drosophila RNAi Screening Center | 2018
The deposit covers about 24,000 reagents; shown is a random part of those with a known target gene and a result. Of all reagents, about 1,210 (5%) got an active call. 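Inactive calls also include excluded dsRNAs with several or no targets, genes unexpressed in JW18, and well A1, regardless of score.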 Reagent sequences are not shown.

Screen: 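Genome-wide screen for host control of endosymbiont load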 (primary screen)
Cells: Drosophila JW18 cells infected with Wolbachia
Knock-down reagent: long dsRNA against Drosophila genes, 0.25 µg dsRNA per well of a 384-well plate
Timing: 5 days
Challenge: cells persistently infected with Wolbachia before knock-down; no added drug
Read-out: 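Imaged fluorescence in situ signal for Wolbachia 23S rRNA per DAPI-counted host cell, given as a robust z-score within each plate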
Reading the numbers: Wolbachia per cell robust z: higher = more Wolbachia per host cell than the plate typical
Call rule: 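Hit when robust z is 1.5 or more, or -1.5 or less, in at least two of three replicates; excludes dsRNAs with several or no targets, genes not expressed in JW18 and well A1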

CR17438 (GeneID 10178895) [SID104197917] → Wolbachia per cell robust z, rep 1 = 0.489; Wolbachia per cell robust z, rep 2 = 0.41; Wolbachia per cell robust z, rep 3 = 0.466; outcome = inactive
CR17438 (GeneID 10178895) [SID104204216] → Wolbachia per cell robust z, rep 1 = -0.48; Wolbachia per cell robust z, rep 2 = 0.146; Wolbachia per cell robust z, rep 3 = 0.0347; outcome = inactive
Hibch (GeneID 41869) [SID104195497] → Wolbachia per cell robust z, rep 1 = 0.199; Wolbachia per cell robust z, rep 2 = -5.08; Wolbachia per cell robust z, rep 3 = -0.0303; outcome = inactive
Hibch (GeneID 41869) [SID104206080] → Wolbachia per cell robust z, rep 1 = 0.519; Wolbachia per cell robust z, rep 2 = 0.6; Wolbachia per cell robust z, rep 3 = 0.404; outcome = inactive
UQCR-11L (GeneID 246560) [SID104201713] → Wolbachia per cell robust z, rep 1 = 0.561; Wolbachia per cell robust z, rep 2 = -0.056; Wolbachia per cell robust z, rep 3 = 0.0752; outcome = inactive
UQCR-11L (GeneID 246560) [SID104219011] → Wolbachia per cell robust z, rep 1 = 0.765; Wolbachia per cell robust z, rep 2 = -1.58; Wolbachia per cell robust z, rep 3 = -1.37; outcome = inactive
OtopLa (GeneID 8674066) [SID104197925] → Wolbachia per cell robust z, rep 1 = 1.04; Wolbachia per cell robust z, rep 2 = 1.45; Wolbachia per cell robust z, rep 3 = 0.899; outcome = inactive
OtopLa (GeneID 8674066) [SID104202583] → Wolbachia per cell robust z, rep 1 = 0.502; Wolbachia per cell robust z, rep 2 = -0.758; Wolbachia per cell robust z, rep 3 = -0.0775; outcome = inactive
OtopLa (GeneID 8674066) [SID104208405] → Wolbachia per cell robust z, rep 1 = -0.68; Wolbachia per cell robust z, rep 2 = -1.7; Wolbachia per cell robust z, rep 3 = -1.26; outcome = inactive
Dhc1 (GeneID 41171) [SID104196295] → Wolbachia per cell robust z, rep 1 = -3.51; Wolbachia per cell robust z, rep 2 = 0.232; Wolbachia per cell robust z, rep 3 = -0.51; outcome = inactive
CG42284 (GeneID 37621) [SID104201664] → Wolbachia per cell robust z, rep 1 = -3.1; Wolbachia per cell robust z, rep 2 = 0.343; Wolbachia per cell robust z, rep 3 = 0.981; outcome = inactive
CG42284 (GeneID 37621) [SID104201837] → Wolbachia per cell robust z, rep 1 = 0.825; Wolbachia per cell robust z, rep 2 = 0.749; Wolbachia per cell robust z, rep 3 = -0.965; outcome = inactive
CG5162 (GeneID 32709) [SID104199727] → Wolbachia per cell robust z, rep 1 = -0.964; Wolbachia per cell robust z, rep 2 = -0.558; Wolbachia per cell robust z, rep 3 = 0.367; outcome = inactive
Pabp2 (GeneID 35788) [SID104187293] → Wolbachia per cell robust z, rep 1 = 0.599; Wolbachia per cell robust z, rep 2 = 1.3; Wolbachia per cell robust z, rep 3 = 0.607; outcome = inactive
CG12310 (GeneID 39634) [SID104189670] → Wolbachia per cell robust z, rep 1 = 0.5; Wolbachia per cell robust z, rep 2 = 0.0995; Wolbachia per cell robust z, rep 3 = 1.03; outcome = inactive
CG12310 (GeneID 39634) [SID104203904] → Wolbachia per cell robust z, rep 1 = -1.34; Wolbachia per cell robust z, rep 2 = -8.83; Wolbachia per cell robust z, rep 3 = 0.24; outcome = inactive
CG14694 (GeneID 41307) [SID104194709] → Wolbachia per cell robust z, rep 1 = -4.18; Wolbachia per cell robust z, rep 2 = 0.111; Wolbachia per cell robust z, rep 3 = 0.988; outcome = inactive
Klp54D (GeneID 47216) [SID104187242] → Wolbachia per cell robust z, rep 1 = -2.76; Wolbachia per cell robust z, rep 2 = -1.44; Wolbachia per cell robust z, rep 3 = 0.918; outcome = inactive
GM130 (GeneID 37524) [SID104184409] → Wolbachia per cell robust z, rep 1 = -0.502; Wolbachia per cell robust z, rep 2 = 0.392; Wolbachia per cell robust z, rep 3 = -0.389; outcome = inactive
CG14186 (GeneID 40196) [SID104189977] → Wolbachia per cell robust z, rep 1 = -1.83; Wolbachia per cell robust z, rep 2 = -0.274; Wolbachia per cell robust z, rep 3 = -0.086; outcome = inactive
CG14186 (GeneID 40196) [SID104206629] → Wolbachia per cell robust z, rep 1 = -0.396; Wolbachia per cell robust z, rep 2 = -0.98; Wolbachia per cell robust z, rep 3 = -0.391; outcome = inactive
CG2926 (GeneID 40676) [SID104192113] → Wolbachia per cell robust z, rep 1 = 0.528; Wolbachia per cell robust z, rep 2 = 0.407; Wolbachia per cell robust z, rep 3 = -0.323; outcome = inactive
CG11322 (GeneID 33949) [SID104181934] → Wolbachia per cell robust z, rep 1 = -3.97; Wolbachia per cell robust z, rep 2 = -0.623; Wolbachia per cell robust z, rep 3 = -6.19; outcome = inactive
CG11322 (GeneID 33949) [SID104203278] → Wolbachia per cell robust z, rep 1 = 0.659; Wolbachia per cell robust z, rep 2 = 0.277; Wolbachia per cell robust z, rep 3 = 0.376; outcome = inactive
CG11322 (GeneID 33949) [SID104216585] → Wolbachia per cell robust z, rep 1 = -1.53; Wolbachia per cell robust z, rep 2 = 1.37; Wolbachia per cell robust z, rep 3 = -0.216; outcome = inactive

Reformatted: results already given
gene knocked down	PubChem SID	Wolbachia per cell robust z, rep 1	Wolbachia per cell robust z, rep 2	Wolbachia per cell robust z, rep 3	outcome
Hibch (GeneID 41869)	SID104206080	0.519	0.6	0.404	inactive
UQCR-11L (GeneID 246560)	SID104201713	0.561	-0.056	0.0752	inactive
